From article PMC10246530

Experiments:
[1] = target: T1, SARS-CoV-2 nucleocapsid NTD (WT) (SARS-CoV-2 (reference genome …, UniProt P0DTC9 44-180)); assay: ITC; first event (Ext part), integrated from both directions, low salt; conditions: protein: recombinant; tags: cleaved tag; one artificial N-terminal Gly left; label: 5'-32P in EMSA; 15N-U/G for RNA-observed NMR; hairpin with 3' labile extension
[2] = target: T1, SARS-CoV-2 nucleocapsid NTD (WT); assay: ITC; second event (SL4 part), integrated from both directions, low salt; conditions: protein: recombinant; tags: cleaved tag; one artificial N-terminal Gly left; label: 5'-32P in EMSA; 15N-U/G for RNA-observed NMR; hairpin with 3' labile extension

B1: SL4ext (SL4_extSL4) (structured_RNA)
RNA: GGUCUGUGUGGCUGUCACUCGGCUGCAUGCUUAGUGCACUCACGCAGUAUAAUUAAUAACUAAUUACUG
**Q.** B1 was tested. Which Kd [1] did it give?
**A.** 0.5 µM

**Q.** And the Kd [2]?
**A.** 99 µM
